{
  "source": "patent US20250082761A1",
  "about": "“DUAL-TARGETED RNA POLYMERASE INHIBITORS: CONJUGATES OF BENZOXAZINO- AND SPIRO-RIFAMYCINS WITH N ALPHA-AROYL-N-ARYL-[…]” (priority 2021, published 2025)",
  "key": {"[1]": {"system": "Mycobacterium abscessus IDR-1400012185", "experiment": "Broth microdilution MIC assay, M. abscessus", "format": "cell-based", "set-up": "unit not given here", "details": "unit not given"}, "[2]": {"system": "Mycobacterium tuberculosis H37Rv", "experiment": "Microplate Alamar Blue MIC assay, H37Rv", "format": "cell-based"}},
  "data": [
    {"smiles": "COC1C=COC2(C)Oc3c(C)c(O)c4c(c3C2=O)C2=NC3(CCN(c5ccc(F)cc5NC(=O)C(Cc5ccccc5)NC(=O)c5ccccc5F)CC3)NC2=C(NC(=O)C(C)=CC=CC(C)C(O)C(C)C(O)C(C)C(O)C1C)C4=O", "note": "(centres unmarked)", "values": [
      {"measurement": "antibacterial activity M. abscessus IDR-1400012185", "setting": "[1]", "value": 0.39},
      {"measurement": "antibacterial activity M. tuberculosis H37Rv MIC", "setting": "[2]", "value": 0.024, "unit": "µg/mL"}
    ]}
  ]
}
